Experimental data taken from ChEMBL document CHEMBL1155139 (Antimicrob Agents Chemother, 2007).

Legend:
Plasmodium falciparum [1] = assay: Antimalarial activity against Plasmodium falciparum NF54; assay type: functional, organism-based
Plasmodium falciparum [2] = assay: Antimalarial activity against Plasmodium falciparum W2
Plasmodium falciparum [3] = assay: Antimalarial activity against Plasmodium falciparum K1; assay type: functional, organism-based
Plasmodium falciparum [4] = assay: Antimalarial activity against Plasmodium falciparum D6

Compound | IC50 (Plasmodium falciparum [1]) [µg/mL] | IC50 (Plasmodium falciparum [2]) [µg/mL] | IC50 (Plasmodium falciparum [3]) [µg/mL] | IC50 (Plasmodium falciparum [4]) [µg/mL]
C1CC2(CCO1)OOC1(CCOCC1)OO2 | 0.044 (≈ 0.189 µM) | 0.068 (≈ 0.293 µM) | 0.078 (≈ 0.336 µM) | 0.1 (≈ 0.431 µM)
C1CCC2(C1)OOC1(CCCC1)OO2 | 0.023 (≈ 0.115 µM) | – | 0.051 (≈ 0.255 µM) | –

≈ marks a conversion by molar mass, not a printed value.
